Laboratory results as given in patent publication US5693815A, “Peptides” (Schering Corporation, priority 1995, dated 1997).

These molecules were tested against HIV1 protease (Human immunodeficiency virus type 1 group M subtype B, UniProt P04585) (assay: Inhibition of proteolytic activity of HIV-1 protease by scintillation proximity assay (SPA), Test 3). Details: read-out: SPA IC50, room temperature, 40 minutes.
Assay type: biochemical
Description: TEST 3--INHIBITION OF PROTEOLYTIC ACTIVITY OF HIV-1-PROTEASE AS DETERMINED BY SCINTILLATION […] ASSAY (SPA)
This is an alternative assay to test #1 and is used to determine the ability of compounds to inhibit the HIV1 protease activity. The SPA assay for HIV1 protease has been developed by Amersham Corporation, Arlington Heights, Ill., and is available for commercial use. In this system the substrate for HIV1 protease, AcN-(I^125)Tyr-Arg-Ala-Arg-Val-Phe-Phe-Val-Arg-Ala-Ala-Lys-SPA bead, is cleaved by the HIV1 protease at the Phe-Phe bond releasing the I^125 -labelled peptide fragment from the SPA bead. This event causes removal of detectable signal from the microsphere bead indicated by reduction in radioactivity
(measured in CPM), which is proportional to the proteolytic activity. The substrate, and the HIV1 protease were incubated in presence of synthetic compound in various dilutions at room temperature for 40 minutes, and the concentration of the compound required to inhibit the proteolytic activity by 50% (IC50) was determined.
With CC(C)(C)NC(=O)c1ccccc1OC[C@H](N)[C@H](Cc1ccccc1)NC(=O)[C@H](CC(N)=O)NC(=O)c1ccc2ccccc2n1 the IC50 was 1350 nM.
Work on CCC(C)[C@H](NC(=O)c1ccc2ccccc2n1)C(=O)N[C@@H](Cc1ccccc1)[C@H](COc1ccc2ccccc2c1C(=O)NC(C)(C)C)N=[N+]=[N-] (stereo partly shown) yielded an IC50 greater than 2000 nM.
For CC(C)(C)NC(=O)c1ccccc1OCC(O)(CO)[C@H](Cc1ccccc1)NC(=O)[C@H](CC(N)=O)NC(=O)c1ccc2ccccc2n1 (single isomer, unassigned) [W or X (isomer B)], the IC50 was 52 nM.
With CC(C)(C)NC(=O)c1ccccc1OCC(=O)[C@H](Cc1ccccc1)NC(=O)[C@H](CC(N)=O)NC(=O)c1ccc2ccccc2n1 the IC50 was 365 nM.
For CC(C)(C)NC(=O)c1ccccc1OC[C@@H](N)[C@H](Cc1ccccc1)NC(=O)[C@H](CC(N)=O)NC(=O)OC(C)(C)C, the IC50 was greater than 2000 nM.
CC(C)(C)NC(=O)c1c(OC[C@H](N=[N+]=[N-])[C@H](Cc2ccccc2)NC(=O)[C@H](CC(N)=O)NC(=O)c2ccc3ccccc3n2)ccc2ccccc12 showed an IC50 of 1250 nM.
CC(C)(C)NC(=O)c1ccccc1OC[C@@H](N=[N+]=[N-])[C@H](Cc1ccccc1)NC(=O)[C@H](CC(N)=O)NC(=O)c1ccc2c(c1)C(=O)c1ccccc1C2=O showed an IC50 greater than 2000 nM.
CC(C)(C)NC(=O)c1c(OC[C@H](N)[C@H](Cc2ccccc2)NC(=O)[C@H](CC(N)=O)NC(=O)c2ccc3ccccc3n2)ccc2ccccc12 gave an IC50 of 1800 nM.
For CC(C)(C)NC(=O)c1ccccc1OCC(NC=O)C(Cc1ccccc1)NC(=O)C(CC(N)=O)NC(=O)c1ccc2ccccc2n1 (stereo not shown), the IC50 was 280 nM.
CC(C)(C)NC(=O)c1ccccc1OC[C@@H](N)[C@H](Cc1ccccc1)NC(=O)[C@H](CC(N)=O)NC(=O)c1ccc2c(c1)C(=O)c1ccccc1C2=O gave an IC50 of 700 nM.
Molecule CC(C)(C)NC(=O)c1ccccc1OC[C@@H](N=[N+]=[N-])[C@H](Cc1ccccc1)NC(=O)[C@H](CC(N)=O)NC(=O)c1cnnc2ccccc12 has an IC50 greater than 2000 nM.
In the case of CC(C)(C)NC(=O)c1ccccc1OC[C@@H](N=[N+]=[N-])[C@H](Cc1ccccc1)NC(=O)[C@H](CC(N)=O)NC(=O)c1ccccn1, the IC50 is reported as greater than 2000 nM.
Work on CC(=O)NC(COc1ccccc1C(=O)NC(C)(C)C)C(Cc1ccccc1)NC(=O)C(CC(N)=O)NC(=O)c1ccc2ccccc2n1 (stereo not shown) yielded an IC50 greater than 2000 nM.
With CC(C)(C)NC(=O)c1ccccc1OC[C@@H](N=[N+]=[N-])[C@H](Cc1ccccc1)NC(=O)[C@H](CC(N)=O)NC(=O)OC(C)(C)C the IC50 was greater than 2000 nM.
Molecule CC(C)(C)NC(=O)c1ccccc1OCC(O)(CO)[C@H](Cc1ccccc1)NC(=O)[C@H](CC(N)=O)NC(=O)c1ccc2ccccc2n1 (single isomer, unassigned) [W or X (isomer A)] has an IC50 of 70 nM.
Molecule CC(C)(C)NC(=O)c1ccccc1OC[C@@H](N)[C@H](Cc1ccccc1)NC(=O)[C@H](CC(N)=O)NC(=O)c1cnc2ccccc2n1 has an IC50 of 990 nM.
CC(C)(C)NC(=O)c1ccccc1OC[C@@H](N=[N+]=[N-])[C@H](Cc1ccccc1)NC(=O)[C@H](CC(N)=O)NC(=O)c1ccc(-c2ccccc2)cc1 was tested, and the IC50 was greater than 2000 nM.
Molecule CC(C)(C)NC(=O)c1ccccc1OC[C@@H](N=[N+]=[N-])[C@H](Cc1ccccc1)NC(=O)[C@H](CC(N)=O)NS(=O)(=O)c1ccc2ccccc2c1 has an IC50 greater than 2000 nM.
Molecule CC(C)(C)NC(=O)c1ccccc1OC[C@@H](N=[N+]=[N-])[C@H](Cc1ccccc1)NC(=O)[C@H](CC(N)=O)NC(=O)c1ccc2ccccc2n1 has an IC50 of 1750 nM.
